Source: US20100074916A1, “AVIAN INFLUENZA VACCINE” (published 2010)

Columns and labels:
[1] = system: Dk97; conditions: reference strain, symbols not defined in the patent; cited from earlier work
[2] = system: Viet04; conditions: reference strain, symbols not defined in the patent; cited from earlier work
[3] = system: wild type H5 KAN-1 HA; assay: Glycan microarray, glycan binding by control (wild type) HA

## Ceruloplasmine
[1]
  binding Dk97: nb
[2]
  binding Viet04: nb

## Fibrinogen
[1]
  binding Dk97: nb
[2]
  binding Viet04: nb

## Galβ1-3(Neu5Acα2-3Galβ1-4(Fucα1-3)GlcNAcβ1-6)GalNAc-Sp14
[3]
  CONTROL: 404 RFU

## Neu5Acα2-3Galβ1-3(Fucα1-4)GlcNAcβ-Sp8
[3]
  CONTROL: 820 RFU

## Neu5Acα2-3Galβ1-3(Neu5Acα2-3Galβ1-4GlcNAcβ1-6)GalNAc-Sp14
[3]
  CONTROL: 62478 RFU

## Neu5Acα2-3Galβ1-4(Fucα1-3)GlcNAcβ1-3Galβ1-4(Fucα1-3)GlcNAcβ1-3Galβ1-4(Fucα1-3)GlcNAcβ-Sp0
[3]
  CONTROL: 2248 RFU

## Neu5Acα2-3Galβ1-4GlcNAcβ1-2Manα1-3(Neu5Acα2-3Galβ1-4GlcNAcβ1-2Manα1-6)Manβ1-4GlcNAcβ1-4GlcNAcβ-Sp12
[3]
  CONTROL: 55128 RFU

## Neu5Acβ2-6GalNAcα-Sp8
[3]
  CONTROL: 79 RFU

## Neu5Acβ2-6Galβ1-4GlcNAcβ-Sp8
[3]
  CONTROL: 39 RFU

## NeuAcα2-3Galβ1-3(Fucα1-4)GlcNAcβ1-3Galβ1-4(Fucα1-3)GlcNAcβ Sp0
[3]
  CONTROL: 2351 RFU

## Transferrin
[1]
  binding Dk97: nb
[2]
  binding Viet04: nb

## α1-Acid Glycoprotein B
[1]
  binding Dk97: nb
